These results are taken from patent US20220387578A1, “Peptide vaccine based on a new universal influenza a hemagglutinin head domain epitope and human monoclonal antibodies binding thereto” (published 2022).

The assay deals with H7 HA A/Netherlands/219/2003 (H7N7), recombinant (influenza A virus). Nature of the assay: ELISA.

One may read the EC50 as the concentration needed to bring the measured effect to its halfway point.

In the case of “rFluA-20 heavy chain mutant C101A (antibody)”, the EC50 was found to be 0.17 µg/mL.
